Pooled drug test results. Numbers come from NIAID ChemDB, via PubChem.

Common to all: host cell toxicity; cell line: HEL; measure: CC50

Blank or dashed fields: not listed here.

CCCCCCCCCCc1cc2cnc(OCCC)nc2o1 ; result: 126 µM
Cc1ccc(C)c(CS(=O)c2cccc[n+]2[O-])c1C ; result: 1.2 µg/mL
CCCCCCC#Cc1cc2cn(COCCO)c(=O)nc2o1 ; result: >50 µM
O=C(NC1CCCC1)[C@H](Cc1ccccc1)NC(=O)n1nnc2ccccc21 ; result: 15.5 µg/mL
CCCCCCCOCCc1cc2cn([C@H]3C[C@H](O)[C@@H](CO)O3)c(=O)nc2o1 ; result: >200 µM
O=C1NC(c2ccccc2)C(=O)N1C1CCCC1 ; read by: MTT ; result: 27.4 µg/mL
CCCCCCCCOc1ccc(/C=C(/C#N)Sc2cccc[n+]2[O-])cc1 ; result: 35 µg/mL
CCCCCCc1cc2cn([C@H]3C[C@H](O)[C@@H](CO)O3)c(=O)nc2o1 ; result: >200 µM
Cc1nc2ccccn2c1NC(=S)Nc1ccccc1 ; result: >50 µg/mL
CCCCCCCCCCc1cc2cnc(OCc3ccccc3)nc2o1 ; result: >200 µM
COc1ccc(C)cc1CS(=O)(=O)c1cccc[n+]1[O-] ; result: 43 µg/mL
CCCCCCCCCC#Cc1cc2cn(COCCO)c(=O)nc2o1 ; result: >50 µM
Cc1cn([C@@H]2OC3COC(=O)C3(OS(C)(=O)=O)C2O)c(=O)[nH]c1=O ; result: 36 µM
Cc1ccc(C)c(CS(=O)c2ncccc2O)c1 ; result: >20 µg/mL
CC1=CC(=O)C=C(C/C=C(\C)CC/C=C(\C)CC/C=C(\C)CC[C@@H](C)C(C)(C)O)C1=O ; result: 32 µM
Cc1ccc[n+]([O-])c1S(=O)(=O)Cc1cccc([N+](=O)[O-])c1C ; result: 9.6 µg/mL
CCCCCCCc1cc2cnc(OCCCCC)nc2o1 ; result: 1109 µM
CCCCCOc1ccc(-c2cc3cn([C@H]4C[C@H](O)[C@@H](CO)O4)c(=O)nc3o2)cc1 ; result: >200 µM
COc1ccc(CS(=O)(=O)c2cccc[n+]2[O-])cc1OC ; result: 41 µg/mL
CCCCCCCCCCc1cc2cnc(OCc3ccc(OC)cc3)nc2o1 ; result: >200 µM
CCC(C)C1NC(=O)N(CC2CCCCC2)C1=O ; read by: MTT ; result: 50 µg/mL
CCCCCCCCc1cc2cn([C@H]3C[C@H](O)[C@@H](CO)O3)c(=O)nc2s1 ; result: 53 µM
CCCCCCCCCCc1cc2cn(C3CCCCC3)c(=O)nc2o1 ; result: >200 µM
CCCCCCCCCCCc1cc2cn([C@H]3C[C@H](O)[C@@H](CO)O3)c(=O)nc2o1 ; result: >200 µM
O=[N+]([O-])c1ccccc1CS(=O)(=O)c1cccc[n+]1[O-] ; result: 13 µg/mL
CCCCCCCc1cc2cnc(OC3CCCC3)nc2o1 ; result: 132 µM
CCCCc1cc2cn(COCCO)c(=O)nc2o1 ; result: >200 µM
Cc1ccc(C)c(CS(=O)(=O)c2cccc(Cl)[n+]2[O-])c1 ; result: 4 µg/mL
Nc1nccc2c1ncn2[C@@H]1C[C@H](CO)[C@@H](O)[C@H]1O ; result: >50 µg/mL
Cc1ccc(C)c(C(C)(Cl)S(=O)(=O)c2cccc[n+]2[O-])c1 ; result: >20 µg/mL
CCCCCCCCc1cc2cn(COCCO)c(=O)nc2[nH]1 ; result: 65 µM
COc1ccc(OC)c(CS(=O)c2cccc[n+]2[O-])c1 ; result: ≥100 µg/mL
CCCCCCCCCCc1cc2cnc(OC(CC)CC)nc2o1 ; result: 127 µM
COc1ccc(Br)c(CS(=O)(=O)c2cccc[n+]2[O-])c1 ; result: 15 µg/mL
O=c1[nH]c(=O)n([C@H]2C[C@H](O)[C@@H](CO)O2)cc1-c1cc(-c2ccc(Cl)cc2)no1 ; result: >200 µg/mL
Cc1ccccc1CS(=O)c1cccc[n+]1[O-] ; result: 52 µg/mL
COc1ccc(-c2cc3cn([C@H]4C[C@H](O)[C@@H](CO)O4)c(=O)nc3o2)cc1 ; result: >200 µM
Cc1ccc(C)c(C(Cl)S(=O)(=O)c2c(Cl)ccc[n+]2[O-])c1 ; result: 15 µg/mL
CCCCCCCCCCc1cc2cn([C@H]3C[C@H](O)[C@@H](CO)O3)c(=O)nc2o1 ; result: >50 µM

Again, the opening 2 rows:

compound | read by | result
CCCCCCCCCCc1cc2cnc(OCCC)nc2o1 | - | 126 µM
Cc1ccc(C)c(CS(=O)c2cccc[n+]2[O-])c1C | - | 1.2 µg/mL

Rows are shuffled and stem from different studies. CCn is the concentration with n% toxicity to the cells.